Data on one compound can be found in ChEMBL document CHEMBL4513135, “CO-ADD screening of IQOG CSIS (Spain) compounds”.

In one experiment the test system is Staphylococcus aureus. As to the kind of experiment: Antibacterial activity against Staphylococcus aureus MRSA ATCC 43300 (CO-ADD:GP_020); MIC in CAMBH media, using NBS plates, by OD(600). To be noted: Concentration 32.0 ug.mL-1.
In a further experiment the test system is Escherichia coli. Briefly: Antibacterial activity against Escherichia coli ATCC 25922 (CO-ADD:GN_001); MIC in CAMBH media using NBS plates, by OD(600). Conditions: Concentration 32.0 ug.mL-1.

Each structure is given as a SMILES string.

As for `COc1ccc(C=C(C#N)C#N)cc1`, the values for the inhibition in the experiment with Staphylococcus aureus and in the experiment with Escherichia coli were -5.84% and -4.61%, respectively.

By inhibition is commonly meant the drop in the measured response relative to a control, in per cent.
